We go through 1 substance from article PMC4728550.

Usually Kd stands for a measure of binding affinity in units of concentration. Usually koff stands for the first-order rate constant of dissociation. What is called kon is the rate constant with which the complex forms.

For this test, the target named is Recombinant protective antigen (rPA) of anthrax toxin (Bacillus anthracis). The test can be described thus: SPR. (In SPR one partner is held on a chip, and binding of the other changes the refractive index at the surface.)

“sCMG2, recombinant soluble von Willebrand factor type A (vWA) domain of capillary morphogenesis prot (from UniProt P58335 39-218) (domain or fragment)”: the dissociation constant Kd is 1.67 nM, the koff worked out at 0.0138 s⁻¹ and the kon stood at 7.98e+06 M⁻¹ s⁻¹.
